Laboratory results: PubChem BioAssay AID1259414 (Drosophila RNAi Screening Center, 2018)

Purpose: 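Fly genes that alter Wolbachia amount inside host cells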 (primary screen)
System: Drosophila JW18 cells infected with Wolbachia
Reagents: long dsRNA against Drosophila genes, 0.25 µg dsRNA per well of a 384-well plate
Time to read-out: 5 days
Conditions: cells persistently infected with Wolbachia before knock-down; no added drug
Detection: 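Imaged fluorescence in situ signal for Wolbachia 23S rRNA per DAPI-counted host cell, given as a robust z-score within each plate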
Reading the numbers: Wolbachia per cell robust z: higher = more Wolbachia per host cell than the plate typical
Hit rule: 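Active if absolute robust z reaches 1.5 in two or more of three replicates, leaving out multi- or no-target dsRNAs, genes unexpressed in JW18 and A1 wells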
The screen tested about 24,000 reagents; below is an unselected part of those that have a named target and a result. In the full data, about 1,210 (5%) were called active. 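Inactive calls also include excluded dsRNAs with several or no targets, genes unexpressed in JW18, and well A1, regardless of score.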 A number with no mark means an inactive call. Reagents against one gene are numbered here. A plus sign joins genes that one reagent is predicted to hit.

target gene	reagent no.	Wolbachia per cell robust z, rep 1	Wolbachia per cell robust z, rep 2	Wolbachia per cell robust z, rep 3
CG42239	1	0.59	1.49	0.597
CG5104	1	-0.0444	0.44	-0.477
CG14052	1	0.456	0.895	0.613
CG14052	2	-4.15	-1.07	-2.55
CG14052	3	-0.779	0.556	1.33
CR32010 + CR32011 + CR32009 + 1 more	1	0.867	0.614	-0.887
CG4558	1	-0.467	1.18	-0.0776
Drl-2	1	0.943	1.39	1.28
Drl-2	2	0.57	1.18	0.643
Drl-2	3	0.286	0.973	0.231
Rbfox1	1	-3.24	0.525	0.356
Rbfox1	2	-0.599	-0.526	-1.12
Rbfox1	3	0.041 (active)	-1.52	-2.45
Rbfox1	4	-1.21	-1.68	-0.434
CG8086	1	-2.84	0.528	0.465
CG8086	2	0.183	-0.213	-0.715
CG8086	3	1.13	0.489	1.2
Nepl13	1	-0.491	0.97	-0.125
aurB	1	-1.58 (active)	3.08	3.93
aurB	2	0.078	0.42	0.92
gammaSnap1	1	0.264	-0.18	-0.361
gammaSnap1	2	0.339	0.634	-0.931
gammaSnap1	3	0.484	-0.336	-0.902
Sting	1	0.878	0.0416	0.74
Sting	2	0.787	-0.022	1.14
Taf5	1	0.927	0.322	0.0245
Taf5	2	-0.155	-0.153	0.276
CG18301	1	-0.0493	0.24	-6.92
PPP1R15	1	2.92 (active)	2.57	0.768
PPP1R15	2	2.03 (active)	2.33	2.3

Next part, starting with the last 7 of the part before.
target gene	reagent no.	Wolbachia per cell robust z, rep 1	Wolbachia per cell robust z, rep 2	Wolbachia per cell robust z, rep 3
Sting	1	0.878	0.0416	0.74
Sting	2	0.787	-0.022	1.14
Taf5	1	0.927	0.322	0.0245
Taf5	2	-0.155	-0.153	0.276
CG18301	1	-0.0493	0.24	-6.92
PPP1R15	1	2.92 (active)	2.57	0.768
PPP1R15	2	2.03 (active)	2.33	2.3
ND-B18	1	0.39	0.284	0.411
ND-B18	2	-6.3	0.502	-0.288
Zmynd10	1	0.65 (active)	1.88	2.31
Zmynd10	2	0.167	-0.977	0.874
Zmynd10	3	0.499	-0.381	0.139
CtsB	1	-0.208	-0.786	-1.63
AANATL7	1	-0.0818	0.822	-0.379
CG31468	1	0.146	1.05	0.368
CG16815	1	-0.937	0.53	-3.63
CG16815	2	0.402	0.46	0.293
CG5863	1	-3.34	0.607	-1.84
Obp47a	1	0.539	-0.0105	0.902
Obp47a	2	0.425	-0.112	-0.746
Dis3l2	1	-0.726	-0.0381	-0.84
nuf	1	-0.213	1.44	0.0934
nuf	2	-3.35	-0.869	-0.642
nuf	3	0.787	-0.393	-0.00494
nuf	4	-7.51	-1.08	0.0454
rpk	1	-0.775	0.795	-0.54
rpk	2	-0.248	-1.02	-0.155
CG13046	1	-2.16	-0.237	-0.464
smog	1	-0.484	-1.27	-0.385
smog	2	0.729	0.279	0.496
smog	3	-0.309	-1.52	-0.505
lin	1	-1.09	0.427	-0.173
lin	2	-0.383	0.308	0.273
Pcyt1	1	-1.16	-0.39	-0.523
Pcyt1	2	0.337	0.0846	-0.848
Muc30E	1	0.833	0.675	0.611
Muc30E	2	-1.01	-0.00966	0.491
Arl4	1	-2.34	0.207	-0.118
CG10939	1	-0.446	-0.323	-0.552
CG10939	2	0.53	0.237	0.917
Gfat2	1	-0.654	-1.4	-8.49
Gfat2	2	0.0732	-0.118	-1.82
Tapdelta	1	0.786	1.69	0.816
vn	1	0.597	1.41	0.0929
vn	2	-2.16 (active)	-0.754	-1.63
vn	3	0.16	-0.025	-0.0966
